Assay results from PubChem BioAssay AID720706 (Broad Institute, 2013).
The entries are a selection whose mix differs from that of the whole data set. The source made the active and inactive calls.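 The calls were made as follows: active = significant combined selectivity score with lowered wild-type GFP, culture density cut under 30%, mutant RFP and density less affected; inactive = any of these conditions unmet.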

Assay: GFP drop in mixed WT/humanized-ribosome E. coli culture – GFP/RFP fluorescence, OD600, single point, bacterial rRNA inhibitor project, primary screen (AID 720706)
Conditions: E. coli WT GFP vs humanized-ribosome RFP mutants, 24 h, hits give low values, DMSO median 0, no signal -100

Structure (SMILES)	GFP signal change (wild-type ribosome)
CCCOc1ccc(NP(C)(=O)Oc2ccc(Cl)cc2)cc1 (stereo not drawn)	inactive: -26.3%
Nc1cccc([As](=O)(O)c2ccccc2)c1	inactive: 8.05%
O=[As](O)(c1cccs1)c1cccs1	inactive: 9.88%
NS(=O)(=O)c1cccc(NC(=O)COC(=O)C(O)(c2ccccc2)c2ccccc2)c1	inactive: -4.04%
CC1CCC(C(C)C)C(OP(=O)(Nc2ccccn2)c2ccccc2)C1 (stereo not drawn)	inactive: -47.8%
Cc1ccc(C(=O)OC2CN3CCC2CC3)cc1 (stereo not drawn)	inactive: 19.2%
CN(C)C1(CNC(=O)c2ccc(S(C)(=O)=O)cc2)CCCCC1	inactive: 16.8%
O=[N+]([O-])c1cc([N+](=O)[O-])c(Nc2nnnn2CCO)c([N+](=O)[O-])c1	active: -21.8%
CCOC(=O)C(CC)C1=NC(C)(C)Cc2ccccc21.O=[N+]([O-])c1cc([N+](=O)[O-])c(O)c([N+](=O)[O-])c1 (stereo not drawn)	inactive: 3.02%
O=C(/C=C/c1ccccc1)OC1CN2CCC1CC2 (stereo not drawn)	inactive: 3%
CCCC1OP(=O)(Nc2ccccc2)OCC1CC (stereo not drawn)	inactive: 7.52%
COc1ccccc1CNC(=O)COC(=O)C(O)(c1ccccc1)c1ccccc1	inactive: -6.89%
Cc1ccc(S(=O)(=O)N(CCCN)CCCc2c(C)nc(N)[nH]c2=O)cc1.O=[N+]([O-])c1cc([N+](=O)[O-])c(O)c([N+](=O)[O-])c1	inactive: -5.55%
CN(C(=O)Cc1ccc(Cl)c(Cl)c1)[C@@H]1CCCC[C@H]1N1CCCC1	inactive: 5.11%
CN(C(=O)Cc1ccc(Cl)c(Cl)c1)C1CCCC[C@@H]1N1CCCC1 (stereo partly drawn)	inactive: 6.48%
CCC1=CC2Cc3nc4ccc(Cl)cc4c(N)c3C(C1)C2 (stereo not drawn)	inactive: -52%
O=C(O)C(O)c1ccc(N(CCCl)CCCl)cc1.c1ccncc1 (stereo not drawn)	inactive: 7.74%
O=[N+]([O-])c1cc([N+](=O)[O-])c(-n2nnc3ccccc32)c([N+](=O)[O-])c1	inactive: 17.2%
CCOP(=O)(NC(=NC(C)c1ccccc1)NC(C)c1ccccc1)OCC (stereo not drawn)	inactive: 1.74%
Nc1ccc(CCCCOc2ccccc2)cc1.O=[N+]([O-])c1cc([N+](=O)[O-])c(O)c([N+](=O)[O-])c1	inactive: -17.1%
CCOP(=O)(Nc1ccc(C)cn1)OCC	inactive: 9.69%
O=P1(N(CCCl)CCCl)NCCC(C(F)(F)F)O1 (stereo not drawn)	inactive: 5.15%
CN(Cc1cccnc1)C(=O)COc1ccc(Cl)c(Cl)c1.O=[N+]([O-])c1cc([N+](=O)[O-])c(O)c([N+](=O)[O-])c1	inactive: -10.9%
CC(C)(C)C(=O)NC(Sc1ncccn1)C(Cl)(Cl)Cl (stereo not drawn)	inactive: 3.54%

Structure (SMILES)	GFP signal change (wild-type ribosome)
Cc1cc(C)cc(OP(C)(=O)Nc2ccccn2)c1 (stereo not drawn)	inactive: -1.2%
CP(=O)(Nc1cccc(Br)c1)Oc1ccccc1 (stereo not drawn)	inactive: -30%
Cc1ccc(NCCc2c([N+](=O)[O-])cc([N+](=O)[O-])cc2[N+](=O)[O-])cc1	inactive: -0.0698%
Nc1cccc2c([As](=O)(O)O)cccc12	inactive: 28.1%
CCCOP(=S)(Nc1nc(N)cc(=O)[nH]1)OCCC	inactive: -0.267%
CCOP(=O)(Nc1cccc2ccccc12)OCC	inactive: 4.42%
O=C(OC1CN2CCC1CC2)c1ccc(Cl)cc1 (stereo not drawn)	inactive: 1.89%
O=[As](O)(O)c1cccnc1	inactive: 8.71%
COc1cc(C(=O)NCC2(N3CCOCC3)CCCCC2)cc(Cl)c1OC(C)C	inactive: -26.6%
COc1ccccc1OP(C)(=O)Nc1cccc(Br)c1 (stereo not drawn)	inactive: -6.5%
CS(=O)(=O)c1ccc(Cl)c(NC(=O)COC(=O)C(O)(c2ccccc2)c2ccccc2)c1	inactive: -4.85%
O=[As](O)(c1cccc(O)c1)c1cccc(O)c1	inactive: 7.68%
Cc1cc(C)cc(OP(C)(=O)Nc2ccc(C)cc2C)c1 (stereo not drawn)	inactive: -0.305%
CCOC(=O)c1ccc(NP(C)(=O)Oc2cc(C)cc(C)c2)cc1 (stereo not drawn)	inactive: 4.71%
NC(=O)Nc1ccc([As](=O)(O)O)cc1	inactive: 24.4%
N#CCCN(C(=O)COC(=O)C(O)(c1ccccc1)c1ccccc1)c1ccc(F)cc1	inactive: 5.28%
CCOP1(=S)c2c(C)nn(CCC#N)c2N=C(c2ccc(F)cc2)N1C (stereo not drawn)	inactive: 4.8%
CN(C)C(=O)c1cc([N+](=O)[O-])cc2c1-c1c(cc([N+](=O)[O-])cc1[N+](=O)[O-])C2=O	inactive: 14.5%
CN(C(=O)Cc1ccc(Cl)c(Cl)c1)[C@H]1CC[C@@]2(CCCO2)C[C@@H]1N1CCCC1	inactive: 5.79%
CCOP1(=S)c2c(C)nn(CCC#N)c2N=C(c2ccccc2F)N1C (stereo not drawn)	inactive: 1.51%
O=C(O)c1cccc(Nc2c([N+](=O)[O-])cc([N+](=O)[O-])cc2[N+](=O)[O-])c1	inactive: 2.4%
O=P(Nc1nccs1)(Oc1ccccc1)Oc1ccccc1	inactive: -5.67%
Nc1ccccc1[As](=O)(O)c1ccccc1	inactive: 9.01%
O=C(O)COc1ccc([As](=O)(O)O)cc1[N+](=O)[O-]	inactive: 7.25%
